Measurements published in patent publication US20150038408A1, “Polypeptides for treating and/or limiting influenza infection” (University of Washington, published 2015).

Molecular target: A/Vietnam/1203/2004 (H5N1) hemagglutinin ectodomain (Influenza A virus A/Vietnam/1203/2004 …)

B1: HB80.3 (Asp12Gly, Ala24Ser, Met26Thr, Asn36Lys, Delta54-95) (designed binder)
chain: MASTRGSGRPWGFSENLAFELALSFTNKDTPDRWAKVAQYVSGRTPEEVKKHYE
For B1, the “EC50 (read off the curve)” value was roughly 10 nM.
